A mixed list of measured activities; the numbers were collected in NIAID ChemDB.

All rows: tests in culture; organism: Mycobacterium tuberculosis

Inhibition is in % at the dose shown (toxicity tests: loss of growth or viability). ECn is the concentration giving n% inhibition of infection, replication or growth. Rows are shuffled and stem from different studies. For "inactive" no cut-off is given. MIC bound comes from a single tested concentration. An empty or dashed field is not shown. A number after MIC or MFC names an inhibition level or a share of isolates.

structure	method	conditions	dose	read-out	strain	value
COc1ccc2cc(C3=[N+]([O-])c4ccccc4C3=O)ccc2c1	MTT	-	-	EC50	H37Rv	1.8 µM
O=Nc1c(-c2ccc(Cl)cc2)nc2sc(Cl)cn12	-	-	-	MIC	H37Rv	>6.25 µg/mL
CCC1=NOC(C)C1C(=O)OCc1ccccc1	BACTEC	-	12.5 µg/mL	inhibition	H37Rv	20%
Cn1c(=O)cc(Oc2nc(Nc3ccc(C#N)cc3)nc(Nc3ccccn3)n2)c2ccccc21	agar	-	-	MIC	-	500 µg/mL
O=C(Nc1ncn[nH]1)c1ccccc1O	-	-	-	MIC	My 331/88	500 µM
[N-]=[N+]=NCCCCCCN1C(=O)C2(OCCO2)c2ccccc21	-	-	-	MIC99	MC2 6230	158 µM
O=C1c2ccccc2-n2c1nc1c(F)cccc1c2=O	-	-	-	MIC	H37Rv	0.13 µg/mL
O=Cc1ccc([N+](=O)ONNC(=O)c2cccnc2)cc1	resazurin	-	6.25 µg/mL	inhibition	H37Rv	51%
COc1ccc2nc(Nc3nc(Nc4ccc(C#N)cc4)nc(Oc4cc(=O)n(C)c5ccccc45)n3)sc2c1	agar	-	-	MIC	-	62.5 µg/mL
[N-]=[N+]=NCCCN1C(=O)C2(OCCO2)c2ccccc21	-	-	-	MIC99	MC2 6230	>365 µM
O=C1c2cc(F)ccc2-n2c1nc1ccncc1c2=O	-	-	-	MIC	H37Rv	0.5 µg/mL
CCS(=O)(=O)CCN1C(=O)CN=C(c2ccccc2F)c2cc(Cl)ccc21	BACTEC	-	-	MIC bound	H37Rv	>12.5 µg/mL
CC(C)CCC[C@@H](C)CCC[C@@H](C)CCCC(C)CC(=O)O	-	-	-	MIC	H37Rv	>128 µg/mL
CCOc1ccc(C(C2=C(O)c3ccccc3C(=O)C2=O)C2=C(O)c3ccccc3C(=O)C2=O)cc1OC	BACTEC	-	-	MIC bound	H37Rv	>12.8 µg/mL
O=C1C(c2ccc(Oc3ccccc3)cc2)=[N+]([O-])c2ccccc21	MTT	-	-	MIC	H37Rv	6.25 µM
COc1ccc2c(=O)c(C)c(-c3ccccc3)oc2c1CN(C)C	BACTEC	-	-	MIC bound	H37Rv	>12.8 µg/mL
CN1CCN(C(=O)N/N=C/c2ccc([N+](=O)[O-])o2)CC1	-	-	-	MIC	-	10 µg/mL
Clc1ccc(-c2cn3cc(Cl)sc3n2)cc1	-	-	-	MIC	H37Rv	>6.25 µg/mL
[N-]=[N+]=NCCCCN1C(=O)C(=O)c2cc(F)ccc21	-	-	-	MIC99	MC2 6230	>382 µM
CN(C)[C@@H]1C(=O)C(C(=O)NCN2CCCC2)=C(O)[C@@]2(O)C(=O)C3=C(O)c4c(O)cccc4[C@@](C)(O)[C@H]3C[C@@H]12	BACTEC	-	12.5 µg/mL	inhibition	H37Rv	24%
NC(=S)c1ccnc(SCc2cccc(F)c2)c1	-	-	-	MIC	My 331/88	31 µM
Cc1c(C(=O)O)nc(N)[nH]c1=O	BACTEC	-	-	MIC bound	H37Rv	>12.5 µg/mL
O=C1C(c2ccc(Cl)cc2)=[N+]([O-])c2ccccc21	MTT	-	-	MIC	H37Rv	25 µM
O=C(Nn1cncn1)c1cc(F)ccc1O	-	-	-	MIC	My 331/88	1000 µM
CCN(CC)C(=O)CNC(=O)c1c2nc3c(C(=O)NCC(=O)N(CC)CC)ccc(C)c3oc-2c(C)c(=O)c1N	BACTEC	-	12.5 µg/mL	inhibition	H37Rv	-7%
O=[N+]([O-])c1ccc(-c2cn3cc(Cl)sc3n2)cc1	-	-	6.25 µg/mL	inhibition	H37Rv	24%
Cn1c(=O)cc(Oc2nc(Nc3ccc(C#N)cc3)nc(Nc3nc4ccc(Br)cc4s3)n2)c2ccccc21	agar	-	50 µg/mL	inhibition	-	97%
COc1ccc(CC(N=Cc2ccc3c(c2)OCO3)C(=O)NC2C(CO)OC(n3cnc4c(N(C)C)ncnc43)C2O)cc1	BACTEC	-	-	MIC	H37Rv	6.25 µg/mL
Cn1c(=O)cc(Oc2nc(Nc3ccc(C#N)cc3)nc(Nc3nc4ccccc4s3)n2)c2ccccc21	agar	-	-	EC95	-	200 µg/mL
COc1ccc2cc(C3=[N+]([O-])c4cc5c(cc4C3=O)OCO5)ccc2c1	MTT	-	-	MIC	H37Rv	>100 µM
NC(=O)N/N=C/c1ccc([N+](=O)[O-])o1	-	-	-	MIC	-	20 µg/mL
Cc1ccnc(NC(=O)c2ccc(Cl)cc2O)n1	-	-	-	MIC	My 331/88	62.5 µM
Clc1cn2cc(-c3ccncc3)nc2s1	-	-	6.25 µg/mL	inhibition	H37Rv	0%
Fc1ccc(-n2ncc(C(c3ccccc3)n3ccnc3)c2-c2ccccc2)cc1	-	-	-	MIC90	ATCC 35820 (streptomycin-resistant)	≥100 µM
CCN1CC2(COC)C(O)CC(OC)C34C5CC6(O)C(OC)CC(O)(C5C6O)C(C(OC)C23)C14.Cl	BACTEC	-	-	MIC bound	H37Rv	>12.5 µg/mL
O=C(Nn1cncn1)c1ccc(Cl)cc1O	-	-	-	MIC	My 331/88	1000 µM
CCC(C(=O)NN)c1ccccc1	-	-	-	EC50	-	<0.25 µg/mL
O=C(N/N=C/c1ccc([N+](=O)[O-])o1)N1CCOCC1	-	-	-	MIC	-	10 µg/mL
O=C1C(c2ccc(CO)cc2)=[N+]([O-])c2ccccc21	MTT	-	-	MIC	H37Rv	50 µM
Clc1ccc(-n2ncc(C(c3ccccc3)n3ccnc3)c2-c2ccccc2)c(Cl)c1	-	-	-	MIC50	ATCC 35820 (streptomycin-resistant)	60.8 µM
Clc1cn2cc(-c3ccc(Cl)c(Cl)c3Cl)nc2s1	-	-	-	MIC	H37Rv	>6.25 µg/mL
N#Cc1ccnc(SCc2ccc(F)cc2)c1	-	-	-	MIC	My 331/88	62 µM
Clc1ccc(-n2ncc(C(c3ccccc3)n3ccnc3)c2-c2ccccc2)cc1	-	-	-	MIC50	ATCC 35820 (streptomycin-resistant)	≥100 µM
COCOC(OCOC)c1ccc([N+](=O)ONNC(=O)c2ccco2)o1	resazurin	-	6.25 µg/mL	inhibition	H37Rv	99%
CN(C)CC(O)CN1c2ccccc2Sc2ccc(Cl)cc21.Cl	BACTEC	-	12.5 µg/mL	inhibition	H37Rv	54%
COc1ccc(C(=O)Nc2ncn[nH]2)c(O)c1	-	-	-	MIC	My 331/88	500 µM
Fc1ccccc1-c1c(C(c2ccccc2)n2ccnc2)cnn1-c1ccccc1	-	-	-	MIC90	ATCC 35837 (ethambutol-resistant)	≥100 µM
COc1ccc2c(c1)C(=O)c1nc3ccccc3c(=O)n1-2	-	-	-	MIC	H37Rv	0.5 µg/mL
Fc1ccc(-n2ncc(C(c3ccccc3)n3ccnc3)c2-c2ccccc2)c(F)c1	-	-	-	MIC50	ATCC 27294	57.5 µM
COC(=O)C1=C(NC(=O)Nc2ccccc2)OC(C)(C)C1c1ccc(Cl)cc1	BACTEC	-	-	MIC bound	H37Rv	>12.5 µg/mL
Cc1ccc2nc(Nc3nc(Nc4ccc(C#N)cc4)nc(Oc4cc(=O)n(C)c5ccccc45)n3)sc2c1	agar	-	250 µg/mL	inhibition	-	94%
CCc1nc(N)nc(N)c1-c1ccc(Cl)cc1	-	-	-	MIC	H37Rv	129 µM
CN(C)C(=S)N/N=C/c1ccc([N+](=O)[O-])o1	-	-	-	MIC	-	40 µg/mL
Cc1ccc(C(=O)Nc2cncs2)c(O)c1	-	-	-	MIC	My 331/88	16 µM
CCCCNC(=O)OCCN=c1c2ccccc2ccc2ccccc12	BACTEC	-	12.5 µg/mL	inhibition	H37Rv	54%
O=C1c2ccccc2-n2c1nc1cccnc1c2=O	-	-	-	MIC	H37Rv	8 µg/mL
COc1ccc(-c2cn3cc(Cl)sc3n2)cc1	-	-	-	MIC	H37Rv	>6.25 µg/mL
c1ccc2c(c1)nnn1c3ncccc3nc21	resazurin	-	6.25 µg/mL	inhibition	H37Rv	97%
CC(=O)NC[C@H]1CN(c2ccc(N3CCN(Cc4ccc([N+](=O)[O-])o4)CC3)c(F)c2)C(=O)O1	-	-	-	MIC50	16 isolates (MDR)	4 µg/mL
COc1c2c(cc(O)c1C(C)=O)OC(C)(C)C=C2	BACTEC	-	-	MIC bound	H37Rv	>128 µg/mL
NC(=S)c1ccnc(SCc2cccc(Cl)c2)c1	-	-	-	MIC	My 331/88	16 µM
O=C(Nc1ccc(C2=NCCN2)c(O)c1)c1ccc(C(=O)Nc2ccc(C3=NCCN3)c(O)c2)cc1	BACTEC	-	-	MIC bound	H37Rv	>12.5 µg/mL
Clc1cn2cc(-c3ccccc3)nc2s1	-	-	6.25 µg/mL	inhibition	H37Rv	29%
[N-]=[N+]=NCCCCCCCCN1C(=O)C2(OCCO2)c2cc(F)ccc21	-	-	-	MIC99	MC2 6230	144 µM
C=C[C@]1(C)C=C2[C@H](O)C[C@@H]3C(C)(CCC[C@@]3(C)CO)[C@H]2CC1	-	-	100 µg/mL	inhibition	ITM3526	inactive
CSC(=S)Nc1cccc(C)n1	resazurin	-	6.25 µg/mL	inhibition	H37Rv	3%
O=C(Nc1cnccn1)c1ccc(Cl)cc1O	-	-	-	MIC	My 331/88	16 µM
Clc1ccc(-n2ncc(C(c3ccccc3)n3ccnc3)c2-c2ccccc2Cl)c(Cl)c1	-	-	-	MIC90	ATCC 35837 (ethambutol-resistant)	>100 µM
NNC(=O)C(=O)NN	-	-	0.25 µg/mL	inhibition	-	60%
NC(=S)c1ccnc(SCc2ccc(F)cc2)c1	-	-	-	MIC	My 331/88	31 µM
COc1ccccc1-c1cn2cc(Cl)sc2n1	-	-	6.25 µg/mL	inhibition	H37Rv	47%
Cc1ccc2nc3c(Cl)cc(=O)cc-3sc2c1	resazurin	-	-	MIC	H37Rv	6.25 µg/mL
Cc1ccc2c(c1)C(=O)C(=O)N2CCCCN=[N+]=[N-]	-	-	-	MIC99	MC2 6230	>388 µM
COC(=O)c1c(Cc2ccccc2)n([O-])c2ccccc2[n+]1=O	-	inside macrophages	-	EC99	H37Rv	>2 µg/mL
Cc1csc2n/c(=N/[N+](=O)[O-])sn12	resazurin	-	-	MIC	H37Rv	6.25 µg/mL
FC(F)(F)c1cccc(-c2cn3ccsc3n2)c1	-	-	6.25 µg/mL	inhibition	H37Rv	83%
O=Cc1ccc([N+](=O)ONNC(=O)c2cc(/C=C\c3ccco3)on2)cc1	resazurin	-	6.25 µg/mL	inhibition	H37Rv	37%
COc1ccc(C(=O)Nc2nccc(C)n2)c(O)c1	-	-	-	MIC	My 331/88	32 µM
CN[C@@H]1[C@H](O[C@H]2[C@H](O[C@H]3[C@H](O)[C@@H](O)[C@H](N=C(N)N)[C@@H](O)[C@@H]3N=C(N)N)O[C@@H](C)[C@]2(O)C=O)O[C@@H](CO)[C@H](O)[C@H]1O	-	-	-	MIC50	ATCC 35822 (isoniazid-resistant)	0.08 µM
NC(=S)c1ccnc(SCc2cccc(Br)c2)c1	-	-	-	MIC	My 331/88	31 µM
COCOC(OCOC)c1ccc([N+](=O)ONNC(=O)c2cc(/C=C\c3ccco3)on2)o1	resazurin	-	6.25 µg/mL	inhibition	H37Rv	59%
Fc1ccc(-c2c(C(c3ccccc3)n3ccnc3)cnn2-c2ccc(F)cc2)cc1	-	-	-	MIC90	ATCC 27294	≥100 µM
CN(C)CCNc1cccc2sc3ccc(O)cc3c(=O)c12	BACTEC	-	-	MIC	H37Rv	6.25 µg/mL
C[C@@H]1CCC([C@@H](C)C(=O)OCCO)[C@]23OO[C@](C)(CCC12)O3	resazurin	-	-	MIC	H37Ra	0.39 µg/mL
COc1ccc(C2=[N+]([O-])c3ccccc3C2=O)cc1	MTT	-	-	EC50	H37Rv	10.2 µM
Cn1c(=O)cc(Oc2nc(Nc3ccc(C#N)cc3)nc(Nc3nc4ccc([N+](=O)[O-])cc4s3)n2)c2ccccc21	agar	-	100 µg/mL	inhibition	-	95%
CN1CCN(C(=S)N/N=C/c2ccc([N+](=O)[O-])o2)CC1	-	-	-	MIC	-	100 µg/mL
O=C1c2cc(Br)ccc2-n2c1nc1ccncc1c2=O	-	-	-	MIC	H37Rv	0.03 µg/mL
O=C(NNS(=O)(=O)c1ccccc1)c1cccnc1	BACTEC	-	-	MIC bound	H37Rv	>12.5 µg/mL
C/C(=C\CO)CCC[C@H](C)CCC[C@H](C)CCCC(C)C	-	-	-	EC50	H37Rv	<100 µg/mL

The last 13 rows once more:

structure	method	conditions	dose	read-out	strain	value
COc1ccc(C(=O)Nc2nccc(C)n2)c(O)c1	-	-	-	MIC	My 331/88	32 µM
CN[C@@H]1[C@H](O[C@H]2[C@H](O[C@H]3[C@H](O)[C@@H](O)[C@H](N=C(N)N)[C@@H](O)[C@@H]3N=C(N)N)O[C@@H](C)[C@]2(O)C=O)O[C@@H](CO)[C@H](O)[C@H]1O	-	-	-	MIC50	ATCC 35822 (isoniazid-resistant)	0.08 µM
NC(=S)c1ccnc(SCc2cccc(Br)c2)c1	-	-	-	MIC	My 331/88	31 µM
COCOC(OCOC)c1ccc([N+](=O)ONNC(=O)c2cc(/C=C\c3ccco3)on2)o1	resazurin	-	6.25 µg/mL	inhibition	H37Rv	59%
Fc1ccc(-c2c(C(c3ccccc3)n3ccnc3)cnn2-c2ccc(F)cc2)cc1	-	-	-	MIC90	ATCC 27294	≥100 µM
CN(C)CCNc1cccc2sc3ccc(O)cc3c(=O)c12	BACTEC	-	-	MIC	H37Rv	6.25 µg/mL
C[C@@H]1CCC([C@@H](C)C(=O)OCCO)[C@]23OO[C@](C)(CCC12)O3	resazurin	-	-	MIC	H37Ra	0.39 µg/mL
COc1ccc(C2=[N+]([O-])c3ccccc3C2=O)cc1	MTT	-	-	EC50	H37Rv	10.2 µM
Cn1c(=O)cc(Oc2nc(Nc3ccc(C#N)cc3)nc(Nc3nc4ccc([N+](=O)[O-])cc4s3)n2)c2ccccc21	agar	-	100 µg/mL	inhibition	-	95%
CN1CCN(C(=S)N/N=C/c2ccc([N+](=O)[O-])o2)CC1	-	-	-	MIC	-	100 µg/mL
O=C1c2cc(Br)ccc2-n2c1nc1ccncc1c2=O	-	-	-	MIC	H37Rv	0.03 µg/mL
O=C(NNS(=O)(=O)c1ccccc1)c1cccnc1	BACTEC	-	-	MIC bound	H37Rv	>12.5 µg/mL
C/C(=C\CO)CCC[C@H](C)CCC[C@H](C)CCCC(C)C	-	-	-	EC50	H37Rv	<100 µg/mL